The IC50 is the concentration that inhibits the measured activity by half. Low readings indicate greater potency in that assay, high ones weaker potency in that assay.

Here are results for one compound from patent US7148237B2, “Nitrogen-containing heteroaryl compounds having HIV integrase inhibitory activity” (Shionogi & Co., Ltd., priority 2001, dated 2006).

This experiment concerns the target integrase (Human immunodeficiency virus type 1 group M subtype B, UniProt P04585). Put plainly: Integrase inhibition assay (microtiter plate strand transfer, substrate DNA/target DNA, anti-digoxigenin ELISA readout). Format: biochemical. The settings on record: concentration of the compound at percent inhibition 50%; OD at 405 nm. How it is done:
The inhibitory activities against integrase of the compounds in the present invention have been determined by the assay described below.
Substrate DNA and target DNA, which sequences were indicated below, were synthesized by Amersham Pharmacia Biotech and dissolved in KTE buffer (composition: 100 mM KCl, 1 mM EDTA, 10 mM Tris-HCl (pH 7.6)) at concentration of 2 pmol/μl and 5 pmol/μl, respectively. The DNA solutions were annealed with each complement by slowly cooling after heating.
Streptavidin, obtained from Vector Laboratories, was dissolved in 0.1 M carbonate buffer (composition: 90 mM Na2CO3, 10 mM NaHCO3) at concentration of 40 μg/ml. After coating each well of microtiter plates (obtained from NUNC) with 50 μl of the above solution at 4° C. over night, each well was washed twice with PBS (composition: […], 0.27 mM KCl, 0.43 mM Na2HPO4, 0.14 mM KH2PO4) and blocked with 300 μL of 1% skim milk in PBS for 30 min. Additionally, each well was washed twice with PBS and added 50 μl of substrate DNA solution (2 pmol/μl). The microtiter plates were kept at room temperature for 30 min. Then, each well was washed twice with PBS and once with H2O. […]
The microtiter plates were incubated at 30° C. for 1 hour. […] The optical density (OD) at 405 nm of each well was measured and the percent inhibition was determined by the following expression. […]

≈ marks a conversion by molar mass, not a printed value.

Consider `CCOC(=O)c1ccc2cc(Cc3ccc(F)cc3)cnc2c1O`, for which the IC50 is 0.22 µg/mL (≈ 0.676 µM).
